Consider one compound from US20180256673A1, “METHODS FOR TREATING FUNGAL INFECTIONS” (priority 2015, published 2018).

This test concerns C. glabrata ATCC 90030, ATCC 2001. The test is described as follows: microbe, parasite or virus in culture. The class given is cell-based, Candida glabrata. Conditions: Nakaseomyces glabratus.

SMILES strings stand for the structures.

On to `CCCCCOc1ccc(-c2ccc(-c3ccc(C(=O)N[C@H]4C[C@@H](O)[C@@H](OCC[N+](C)(C)C)NC(=O)[C@@H]5[C@@H](O)[C@@H](C)CN5C(=O)[C@H]([C@@H](C)O)NC(=O)[C@H]([C@H](O)[C@@H](O)c5ccc(O)cc5)NC(=O)[C@@H]5C[C@@H](O)CN5C(=O)[C@H]([C@@H](C)O)NC4=O)cc3)cc2)cc1` [Compound 1], for which the MIC (48 h, ATCC 90030 P20-1, selecting drug CAS, Fks2 HS1 F659I D666Y, 48 h read) turned out to be 8 µg/mL and the MIC (ATCC 2001 P20-2, selecting drug ANID, Fks1 HS1 D632Y) was determined as 2 µg/mL.
